From ChEMBL document CHEMBL3872213, “Synthesis and biological activity of furoxan derivatives against Mycobacterium tuberculosis” (Eur J Med Chem, 2016) come the findings set out here.

In the test the test system is Mycobacterium tuberculosis. The settings on record: H37Rv ATCC 27294.

The structures appear in SMILES notation. Converted amounts (≈) assume the structure as drawn.

By MIC90 is commonly meant an inhibitory concentration at the 90% level, which refers to growth in some studies and to a panel of isolates in others. A low value points to higher susceptibility. `Cc1c([N+](=O)[O-])no[n+]1[O-]` displayed an MIC90 of 2.6 µM (≈ 0.377 µg/mL). In other words, the single-digit micromolar range.
